Tested on: Recombinant 6-34
Assay: Drug sensitivity of HSV-1/HSV-2 intertypic Recombinant 6-34
Settings: e.g. R6-34, R6-19, PAA^R1

Row | SMILES | resistance of altered DNA polymerase mutants
1 | Nc1nc2c(ncn2COCCO)c(=O)[nH]1 [Acycloguanosine, 9-(2-hydroxyethoxymethyl)guanine, reference compound] | resistance
2 | Nc1nc2c(ncn2COC2COP(=O)(O)OC2)c(=O)[nH]1 (stereo not shown) [Cyclic Monophosphate, Potassium 9-(1,3-dihydroxy-2-propoxymethyl)guanine cyclic monophosphate] | resistance
3 | O=C(O)CP(=O)(O)O [PAA, phosphonoacetic acid] | resistance
4 | Nc1ncnc2c1ncn2[C@@H]1O[C@H](CO)[C@@H](O)[C@@H]1O [adenine arabinoside] | resistance
